Results taken from publication PMC6943623, “Antileishmanial Compounds Isolated from Psidium Guajava L. Using a Metabolomic Approach” (Molecules, 2019).

System: L. infantum axenic amastigotes
Assay: Antileishmanial activity on axenic amastigotes (luciferase assay)
Assay type: cell-based, L. infantum strain MHOM/MA/67/ITMAP-263
Conditions: Selectivity Index, J774A1 CC50 versus axenic amastigote IC50

Compound | SI Amastigotes | SI Amastigotes (listed as jacoumaric acid) | SI Amastigotes (listed as corosolic acid)
CC1CCC2(C(=O)O)CCC3(C)C(=CCC4C5(C)CC(O)C(OC(=O)/C=C/c6ccc(O)cc6)C(C)(C)C5CCC43C)C2C1C (centres unmarked) [Jacoumaric acid (2), Jacoumaric acid] | 9.76 | above five | 
C[C@H]1[C@H](C)CC[C@]2(C(=O)O)CC[C@]3(C)C(=CC[C@@H]4[C@@]5(C)C[C@@H](O)[C@H](O)C(C)(C)[C@@H]5CC[C@]43C)[C@H]12 [Corosolic acid (1), Corosolic acid (2α-hydroxyursolic acid)] | 5.71 |  | above five
C[C@@H]1[C@H](O)[C@@H](C)/C=C/C=C/C=C/C=C/C=C/C=C/C=C/[C@H](O[C@@H]2O[C@H](C)[C@@H](O)[C@H](N)[C@@H]2O)C[C@@H]2O[C@](O)(C[C@@H](O)C[C@@H](O)[C@H](O)CC[C@@H](O)C[C@@H](O)CC(=O)O[C@H]1C)C[C@H](O)[C@H]2C(=O)O [Amphotericin B, reference compound] | 64.33 |  | 
